The entries are a selection whose mix differs from that of the whole data set. Calls of active or inactive are those of the source.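 How the source made its calls: active means inhibition above the mean of all tested compounds plus 3 SD, set per screening campaign (cut at about 17% in these data); inactive means the rest.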

The values that follow come from PubChem BioAssay AID1906 (The Scripps Research Institute Molecular Screening Center, 2009).

The test system of this experiment is cathepsin L1 (Fasciola hepatica). Briefly: Fasciola hepatica cathepsin L1 inhibitors, primary screen, counter-screen for PFM18AAP inhibitor project, biochemical, QFRET, fluorogenic peptide substrate (AID 1906).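 Further: 0% = plate median of test compound wells and 100% = 1 µM Z-Phe-Ala-diazomethylketone.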 Particulars: recombinant F. hepatica cathepsin L1, Z-Leu-Arg-MCA fluorescence; at 5.96 µM; stronger effect = higher value. For orientation: The purpose of a counterscreen is to sort out artefacts and off-target activity.
Usually inhibition stands for the change of the read-out against control, counted positive when it falls. For the molecule `CCOC(=O)N1CCC(Nc2cccc(C)c2)CC1`, the inhibition is inactive: 1.66%. Next, `Cc1ccc(OCC(C)C)c(CN(CCCl)CCCl)c1`: inactive: 1.89%. With `CCOc1ccc(C)cc1CN(CCCl)CCCl`, the inhibition is inactive: -2.29%. Take `O=C(NCC1(N2CCCCC2)CCCCC1)c1ccc(F)cc1`: the inhibition was inactive: 4.82%.

As to `COc1ccc(NC2CCN(CCc3ccccc3)CC2)c(OC)c1`, the inhibition was inactive: -3.42%. As for `O=C(NCC1(N2CCOCC2)CCCCC1)c1cc2ccccc2o1`, the inhibition is inactive: -2.43%. On to `O=C(NCC1(N2CCCCC2)CCCCC1)c1ccc(Cl)nc1`, for which the inhibition is active: 21.1%. Turning to `Cc1cc(C)cc(N(C(=O)c2ccccc2)C2CCN(C(=O)OC(C)(C)C)CC2)c1`, the inhibition is inactive: 1.31%. Next, `CCOC(=O)N1CCC(Nc2ccc(OC)cc2)CC1`: inactive: -0.89%; `O=C(OC1CN2CCC1CC2)C1c2ccccc2Oc2ccccc21` (stereo unspecified): inactive: 0.7%. For `N#CC1(Nc2ccccc2)CCN(Cc2ccccc2)CC1` the value was inactive: 8.67%; for `O=C(NCC1(N2CCCCC2)CCCCC1)c1ccc(=O)[nH]c1`, inactive: -0.23%; for `O=C(NCC1(N2CCCCC2)CCCCC1)c1cccs1`, inactive: -2.15%. Consider `COc1ccc(C(=O)NCC2(N3CCCCC3)CCCCC2)cc1`, for which the inhibition is active: 49.7%.

For the molecule `CC(C)(C)OC(=O)N1CCC(N(C(=O)c2ccccc2)c2ccc(F)cc2)CC1`, the inhibition was inactive: -4.75%. Next, `COc1ccc(C(=O)NCC2(N3CCCCC3)CCCCC2)c(OC)c1OC`: inactive: 1.51%; `CSc1ccccc1C(=O)NCC1(N2CCCCC2)CCCCC1`: active: 45.1%. In the case of `CN1CCC(Nc2cccc(F)c2)CC1`, the inhibition was inactive: 1.09%. Next, `COc1ccc(CN(CCCl)CCCl)cc1Cl`: inactive: 2.74%; `CN(C)c1cccc(C(=O)NCC2(N3CCCCC3)CCCCC2)c1`: inactive: 5.97%; `CC(C)c1ccc(NC2CCN(C(=O)OC(C)(C)C)CC2)cc1`: inactive: -0.85%. For `COc1cc(OC)c(C(=O)NCC2(N(C)C)CCCCC2)cc1OC` the value was inactive: 0.26%. For `O=C(NCC1(N2CCCCC2)CCCCC1)c1cccc(C(F)(F)F)c1` the value was inactive: 0.37%; for `CN1CCN(CCOC(=O)C(O)(c2ccccc2)c2ccccc2)CC1`, inactive: 3.07%; for `COc1ccc(NC2CCN(C(=O)OC(C)(C)C)CC2)cc1`, inactive: 3.17%. Regarding `COc1cc(C(=O)NCC2(N3CCCCC3)CCCCC2)ccc1OC(F)F`, the inhibition was inactive: 8.28%.

For `O=C(NCC1(N2CCOCC2)CCCCC1)c1cc(=O)[nH]c2ccccc12`, the inhibition is inactive: -4.92%.

In the case of `O=C(NCC1(N2CCCCC2)CCCCC1)c1ccc(OC(F)F)cc1`, the inhibition is active: 50.1%. For `O=C(NCC1(N2CCCCC2)CCCCC1)c1cccc([N+](=O)[O-])c1` the value was inactive: -2.23%. Next, `CCN1CCC(Nc2ccc(Cl)cc2)CC1`: inactive: 1.18%.

For the molecule `N#CC1(Nc2ccccc2)CCN(CCc2ccccc2)CC1`, the inhibition was inactive: -1.56%.

Consider `c1ccc(CN2CCC(Nc3ccccc3)CC2)cc1`, for which the inhibition is inactive: -4.76%. For `CCCN1CCC(Nc2cc(OC)cc(OC)c2)CC1` the value was inactive: -3.31%; for `CN(C)C1(CNC(=O)c2cccc(C#N)c2)CCCCC1`, inactive: -1.26%; for `CC(C)(C)OC(=O)N1CCC(N(C(=O)c2ccccc2)c2ccc(Cl)cc2)CC1`, inactive: 2.05%.

With `N#Cc1ccc(C(=O)NCC2(N3CCCCC3)CCCCC2)cc1`, the inhibition was inactive: -2.1%. Regarding `N/C(=N\O)c1c(N)no[n+]1[O-]`, the inhibition was inactive: 2.16%. Take `CCOC(=O)N1CCC(Nc2ccc(C)cc2)CC1`: the inhibition is inactive: 1.15%. For `O=C(OC1CN2CCC1CC2)C1c2ccccc2C=Cc2ccccc21` (stereo unspecified) the value was inactive: -5.38%; for `CCc1cc(C(=O)NCC2(N3CCCCC3)CCCCC2)sc1C`, inactive: -0.96%; for `COc1ccc(C(=O)NCC2(N3CCOCC3)CCCCC2)cc1OC`, inactive: -1.16%. Next, `CCC(CO)(C(=O)OC1CN2CCC1CC2)c1ccccc1` (stereo unspecified): inactive: 3.92%; `COc1cc(OC)cc(C(=O)NCC2(N3CCOCC3)CCCCC2)c1`: inactive: -5.04%; `COc1cccc(C(=O)N(c2cc(C)cc(C)c2)C2CCN(C(=O)OC(C)(C)C)CC2)c1`: inactive: 6.57%. Next, `CCCOc1ccc(C)cc1CN(CCCl)CCCl`: inactive: -0.03%; `CN1CCC(Nc2ccc(Cl)cc2)CC1`: inactive: -1.36%; `CCOc1ncccc1C(=O)NCC1(N2CCOCC2)CCCCC1`: inactive: 1.8%. Turning to `CN1CCC(Nc2ccc(F)c(Cl)c2)CC1`, the inhibition is inactive: -1.48%.

As for `CCCOc1ccc(C(=O)NCC2(N(C)C)CCCCC2)cc1`, the inhibition was inactive: 1.47%. Next, `CC(C)(C)OC(=O)N1CCC(Nc2ccccc2)CC1`: inactive: 1.04%.

For the molecule `O=C(O)C1(Nc2ccccc2)CCN(Cc2ccccc2)CC1`, the inhibition is inactive: -1.46%. Next, `CCN1CCC(Nc2cccc(F)c2)CC1`: inactive: -3.49%; `CN(C)c1ccc(C(=O)NCC2(N3CCCCC3)CCCCC2)cc1`: inactive: 1.9%. Next, `COc1cc(OC)cc(C(=O)NCC2(N3CCCCC3)CCCCC2)c1`: inactive: 12.6%; `Cc1ccc(C(=O)NCC2(N3CCCCC3)CCCCC2)o1`: inactive: 14.1%. For `Fc1ccccc1NC1CCN(Cc2ccccc2)CC1` the value was inactive: -2.45%.
